Compound potency records, mixed from different reports. Data source: NIAID ChemDB in PubChem.

All rows: whole-cell or culture tests; organism: HIV-1

Blank or dashed fields: not listed here. ECn: concentration that inhibits the pathogen or its effect by n%. Two numbers with a dash give a range or band. Lines come from different laboratories, so protocols vary.

SMILES	method	strain	cells	measure	setting	changes	value
Cc1cn([C@H]2C[C@H](N=[N+]=[N-])[C@@H](CO)O2)c(=O)nc1NNc1ccccc1	MTT / ELISA	IIIB	C8166	EC50	-	-	0.0025 µM
O=C(O)c1cc(-c2ccc(/C=C3\SC(=S)N(c4cccc(F)c4)C3=O)o2)ccc1Cl	cytopathic effect	IIIB	MT-2	EC50	-	-	2.213 µM
c1cc2c(cc1[C@H]1OC[C@H]3[C@@H]1CO[C@@H]3c1ccc3c(c1)OCO3)OCO2	syncytia	IIIB	H9	EC50	-	-	<8.2 µM
CC(C)CN(C[C@@H](O)[C@H](Cc1ccccc1)NC(=O)O[C@H]1CCOC1)S(=O)(=O)c1ccc(N)cc1	p24	Clinical isolate	PBMC	EC50	-	PR-L10L/I K20R M36I I54V A71I/V V82A I84I/V L90M	0.111 µM
Nc1nc(N)c2ncn([C@H]3CO[C@@H](CO)O3)c2n1	p24	LAI	PBMC	EC50	-	-	4 µM
Cc1cn([C@H]2C=C[C@@H](CO)O2)c(=O)[nH]c1=O	cytopathic effect / XTT	Site-directed mutant	MT-2	EC50	-	RT-K65R Y115F M184V	8.71 µM
CC(C)(C)NC(=O)[C@@H]1C[C@@H]2CCCC[C@@H]2CN1C[C@@H](O)[C@H](Cc1ccccc1)NC(=O)[C@H](CC(N)=O)NC(=O)c1ccc2ccccc2n1	p24	BR59 (PR L10I K20R M36I/V P63L/S L90M)	PBMC	EC90	-	PR-L10I K20R M36I/V P63L/S L90M	0.018 µM
O[C@H]1OC[C@H](Cc2ccc3c(c2)OCO3)[C@H]1Cc1ccc2c(c1)OCO2	RT activity	IIIB	H9	EC50	-	-	<12.7 µM
C[C@@]1(Br)C(=O)NC(=O)N([C@H]2C=C[C@@H](CO)O2)[C@H]1N=[N+]=[N-]	cytopathic effect / XTT	RF	CEM	EC50	-	-	0.918 µM
COc1cc(C[C@H]2C(=O)OC[C@@H]2Cc2ccc(OC)c(OC)c2)ccc1O	syncytia	IIIB	H9	EC50	-	-	<0.13 µM
CCCc1nnc(C[C@H](C[C@H](O)CN2CCN(Cc3ccc(-c4ccc(Cl)cc4)o3)C[C@H]2C(=O)NCC(F)(F)F)C(=O)N[C@H]2c3ccccc3OC[C@H]2O)o1	p24	V-18 Clinical isolate	MT-4	EC50	-	PR-L10I M36I N37D M46I R57K L63P A71V G73S I84V L90M I93L	<0.125 µM
Nc1ccn([C@H]2CC[C@@H](CO)O2)c(=O)n1	cytopathic effect	-	-	EC50	-	-	<0.1 µM
Cc1cn([C@H]2C[C@H](N=[N+]=[N-])[C@@H](COP(=O)(Oc3ccc(C(F)(F)F)cc3)Oc3ccc(C(F)(F)F)cc3)O2)c(=O)[nH]c1=O	ELISA	IIIB	C8166	EC50	-	-	0.0064 µM
Cc1cn([C@H]2C[C@H](N=[N+]=[N-])[C@@H](COP(=O)(O)OCc3ccc(C(=O)OC(C)(C)C)cc3)O2)c(=O)[nH]c1=O	syncytia	IIIB	C8166	EC50	-	-	0.016 µM
Cc1nnc(C[C@H](C[C@H](O)CN2CCN(Cc3ccc(-c4ccc(Cl)cc4)o3)C[C@H]2C(=O)NCC(F)(F)F)C(=O)N[C@H]2c3ccccc3OC[C@H]2O)o1	p24	NL4-3 WT	MT-4	EC95	-	-	0.063 µM
C=C(C)[C@]12C[C@@H](C)[C@@]34OC(CCCCCCCCCCCCCCC)(O[C@@H]1[C@@H]3[C@@H]1O[C@]1(CO)[C@@H](O)[C@]1(O)C(=O)C(C)=C[C@H]14)O2	cytopathic effect	-	-	EC50	-	-	0.00052 µM
CC(C)(C)OC(=O)N[C@@H](Cc1ccccc1)[C@H](O)CNC[C@@H](O)[C@H](Cc1ccccc1)NC(=O)C1[C@H](O)CCC1(C)C	cytopathic effect / XTT	RF	CEM + CEM-SS	EC50	-	-	0.02 µM
CN1C[C@@H](O)C(C)(C)Cn2c(c3c(c(O)c2=O)C(=O)N(Cc2ccc(F)c(Cl)c2)CC3)C1=O	p24	-	MT-4	EC95	-	-	0.031 µM
Cc1ccc(N2C(=O)/C(=C/c3ccc(-c4cccc(C(=O)O)c4)o3)SC2=S)cc1	cytopathic effect	IIIB	MT-2	EC50	-	-	2.517 µM
Cc1cn([C@H]2C[C@H](N=[N+]=[N-])[C@@H](CO)O2)c(=O)[nH]c1=O	ELISA	GB8)/1(IIIB	JM	EC50	-	-	100 µM
CC(=O)N1CCC(C(=O)N(CCCN2CCC(Cc3ccc(C(N)=O)cc3)CC2)c2ccc(C)c(Cl)c2)CC1	luciferase	R5 subtype E_3 recombinant	U87 (CD4+ CCR5+) + U87	EC50	-	-	0.0064 µM
Cc1cn([C@H]2C[C@H](N=[N+]=[N-])[C@@H](CO)O2)c(=O)nc1N(C)N	MTT / ELISA	IIIB	C8166	EC50	-	-	0.16 µM
CC(C)OC(=O)OCOc1c2c(c3n(c1=O)[C@@]1(CC[C@H]4C[C@H]41)N(C[C@H](C)OP(=O)(O)O)C3=O)CCN(Cc1ccc(F)c(Cl)c1)C2=O	GFP	-	MT-4	EC50	0% human serum	-	>4.2 µM
COc1cccc2c1c(/C(O)=C/C(=O)C(=O)O)cn2Cc1cc(C)cc(C)c1	MTT	-	MT-4	EC50	-	-	4.63 µM
CC(C)(c1ncc(-c2ccc(Cl)cc2)o1)N1CCN(C[C@@H](O)C[C@@H](Cc2nnco2)C(=O)N[C@H]2c3ccccc3OC[C@H]2O)[C@H](C(=O)NCC(F)(F)F)C1	p24	NL4-3 WT	MT-4	EC50	-	-	<0.125 µM
Cc1cn([C@H]2C[C@H](N=[N+]=[N-])[C@@H](CO)O2)c(=O)[nH]c1=O	cytopathic effect / XTT	Site-directed mutant	MT-2	EC50	-	RT-K65R Y115F M184V	0.196 µM
C=C(C)OC(=O)N1c2cc(Cl)ccc2NC(=S)C1(C)C	cytopathic effect	Recombinant	MT-4	EC50	-	RT-V106A P225H	0.25 µM
O=C(N[C@H]1c2ccccc2OC[C@H]1O)[C@H](Cc1nnco1)C[C@H](O)CN1CCN(Cc2ccc(-c3ccc(Cl)cc3)o2)C[C@H]1C(=O)NCC(F)(F)F	p24	Q-60 Clinical isolate	MT-4	EC50	-	PR-L10I N37S R41K M46I I54V I62V L63P A71V V77I V82A L90M I93L	<0.031 µM
CCCCCC/C=C\C/C=C\CCCCCCC(=O)O[C@H](COC(=O)CCCCCCCCCCCCCCC)COP(=O)([O-])OCC[N+](C)(C)C	p24 / ELISA	-	H9	EC50	-	-	15 µM
CO[C@@H]1N([C@H]2C=C[C@@H](CO)O2)C(=O)NC(=O)[C@@]1(C)Br	cytopathic effect / XTT	RF	CEM	EC50	-	-	54.6 µM
CC(C)=CCN1Cc2cc(Cl)cc3[nH]c(=S)n(c23)C[C@@H]1C	antigen	MFE30(RT-P236L)	MT-4	EC50	-	RT-P236L	~0.03 µM
CCOC(=O)c1[nH]c2ccc(Cl)cc2c1CC#N	luciferase	-	293T	EC50	-	-	19.8 µM
CCO[C@H]1N([C@H]2C=C[C@@H](CO)O2)C(=O)NC(=O)[C@]1(C)Br	cytopathic effect / XTT	RF	CEM	EC50	-	-	>14 µM
Cc1nnc(C[C@H](C[C@H](O)CN2CCN(C(C)(C)c3ncc(-c4ccc(F)cc4)o3)C[C@H]2C(=O)NCC(F)(F)F)C(=O)N[C@H]2c3ccccc3OC[C@H]2O)o1	p24	V-18 Clinical isolate	MT-4	EC50	-	PR-L10I M36I N37D M46I R57K L63P A71V G73S I84V L90M I93L	<0.063 µM
Cc1cn([C@H]2C[C@H](N=[N+]=[N-])[C@@H](COP(=O)(OCc3ccc(C(=O)OC(C)(C)C)cc3)OCc3ccc(C(=O)OC(C)(C)C)cc3)O2)c(=O)[nH]c1=O	syncytia	IIIB	C8166	EC50	-	-	8 µM
CCCCCCCCCCCCCCC[C@@H](O)[C@@H](N)CO	luciferase / cell fusion	-	TZM-bl + HL2/3	EC50	-	-	>1.5 µM
CC1=C(C(=O)Nc2ccc(Cl)c(C(=O)OC(C)C)c2)SCCO1	p24	RF	PBL	EC50	-	-	0.5 µM
Cc1cn([C@H]2C[C@H](N=[N+]=[N-])[C@@H](COP(=O)(OCc3ccc(C(=O)OC(C)C)cc3)OCc3ccc(C(=O)OC(C)C)cc3)O2)c(=O)[nH]c1=O	syncytia	GB8	JM	EC50	-	-	0.014 µM
CCc1c(C(=O)c2cc(C)cc(C)c2)n(CC2CC=CC2)c(=O)[nH]c1=O	cytopathic effect / XTT	4xAZT(RT-D67N K70R T215Y K219Q)	CEM + CEM-SS	EC50	-	RT-D67N K70R T215Y K219Q	0.0006 µM
Cc1cn([C@H]2C[C@H](N=[N+]=[N-])[C@@H](CO)O2)c(=O)[nH]c1=O	cytopathic effect	-	-	EC50	-	-	0.01592 µM
C[C@H](NC=O)C(=O)N[C@H](C(=O)N[C@@H](Cc1ccccc1)[C@H](O)CNC[C@@H](O)[C@H](Cc1ccccc1)NC(=O)OC(C)(C)C)C(C)(C)C	cytopathic effect / XTT	RF	CEM + CEM-SS	EC50	-	-	5 µM
O=S(=O)(O)c1cc(Nc2nc(Cl)nc(Nc3ccc(Nc4nc(Cl)nc(Nc5cc(S(=O)(=O)O)cc6cc(S(=O)(=O)O)c(N=Nc7ccccc7S(=O)(=O)O)c(O)c56)n4)cc3)n2)c2c(O)c(N=Nc3ccccc3S(=O)(=O)O)c(S(=O)(=O)O)cc2c1	-	MN	MOLT-4	EC50	-	-	1–10 µM
O=C(CCC(=O)Nc1ccn([C@H]2CC[C@@H](CO)O2)c(=O)n1)Nc1ccn([C@H]2CC[C@@H](CO)O2)c(=O)n1	cytopathic effect	-	-	EC50	-	-	<1 µM
O=C1N(c2ccncc2)[C@H](Cc2ccccc2)[C@H](O)CN(Cc2ccccc2)N1c1ccncc1	cytopathic effect / MTT	IIIB	MT-4	EC50	-	-	5.8 µM
Cc1cn([C@H]2C[C@H](N=[N+]=[N-])[C@@H](COP(=O)(Oc3ccc(C#N)cc3)Oc3ccc(C#N)cc3)O2)c(=O)[nH]c1=O	ELISA	IIIB	C8166	EC50	-	-	0.0032 µM
O=c1[nH]cnc2c1ncn2[C@H]1CC[C@@H](CO)O1	p24	XM-AZT-resistant	PBMC	EC90	-	RT-M41L D67N K70R T215Y K219Q	8.5 µM
C[C@H]1CN2CCC[C@H]3CCCCC[C@@H]4C(=O)[C@@H](C)CN5CCC[C@@H](CCCCC[C@H](C1=O)[C@@H]32)[C@H]45	β-galactosidase	MN	MAGI	EC50	-	-	46.8 µM
COc1ccc2c(c1)N(C(=O)OC(C)C)[C@@H](CSC)C(=S)N2	cytopathic effect	Recombinant	MT-4	EC50	-	RT-V106A	0.013 µM
COc1ccc(OP(=O)(OC[C@H]2O[C@@H](n3cc(C)c(=O)[nH]c3=O)C[C@@H]2N=[N+]=[N-])Oc2ccc(OC)cc2)cc1	ELISA	GB8)/1(IIIB	JM	EC50	-	-	45 µM
Nc1nc(N)c2ncn([C@@H]3CC[C@H](CO)S3)c2n1	cytopathic effect / MTT	IIIB	MT-2	EC50	-	-	>100 µM
CCCc1nnc(C[C@H](C[C@H](O)CN2CCN(C(C)(C)c3ncc(-c4cncc(OC)c4)o3)C[C@H]2C(=O)NCC(F)(F)F)C(=O)N[C@H]2c3ccccc3OC[C@H]2O)o1	p24	NL4-3 WT	MT-4	EC95	-	-	0.5 µM
COC(=O)c1ccc(COP(=O)(O)OC[C@H]2O[C@@H](n3cc(C)c(=O)[nH]c3=O)C[C@@H]2N=[N+]=[N-])cc1	syncytia	IIIB	C8166	EC50	-	-	0.04 µM
CCCCCC/C=C\C/C=C\CCCCCCC(=O)O[C@H](COC(=O)CCCCCCCCCCCCCCC)COP(=O)([O-])O.[Na+]	p24 / ELISA	-	H9	EC50	-	-	42 µM
Cc1cn([C@H]2C[C@H](N=[N+]=[N-])[C@@H](CO)O2)c(=O)[nH]c1=O	RT activity	IIIB	H9	EC50	-	-	0.13 µM
Nc1nc(Cl)nc2c1ncn2[C@H]1CC[C@H](CO)S1	cytopathic effect / MTT	IIIB	MT-2	EC50	-	-	>100 µM
Cc1c(N)nc([C@H](CC(N)=O)NC[C@H](N)C(N)=O)nc1C(=O)N[C@H](C(=O)N[C@H](C)[C@@H](O)[C@H](C)C(=O)N[C@H](C(=O)NCCc1nc(-c2nc(C(=O)NCCC[S+](C)C)cs2)cs1)[C@@H](C)O)C(O[C@@H]1O[C@@H](CO)[C@@H](O)[C@H](O)[C@@H]1O[C@H]1O[C@H](CO)[C@@H](O)[C@H](OC(N)=O)[C@@H]1O)c1cnc[nH]1	p24	HXB2-D WT	PBMC	EC50	-	-	0.49 µM
CCOCn1c(Cc2ccccc2)c(C(C)C)c(=O)[nH]c1=O	cytopathic effect	Recombinant	MT-4	EC50	-	RT-P225H	0.046 µM
CC(C)=CCOc1cc(NC(=S)c2ccoc2C)ccc1Cl	-	NL4-3	-	EC50	-	-	0.006 µM
Nc1nc2c(ncn2[C@H]2CC[C@@H](CO)O2)c(=O)[nH]1	cytopathic effect / MTT	IIIB	MT-2	EC50	-	-	10 µM
COC(=O)c1ccc(COP(=O)(OCc2ccc(C(=O)OC)cc2)OC[C@H]2O[C@@H](n3cc(C)c(=O)[nH]c3=O)C[C@@H]2N=[N+]=[N-])cc1	syncytia	IIIB	C8166	EC50	-	-	0.016 µM
COC1(C)C(=O)NC(=O)N([C@H]2C=C[C@@H](CO)O2)[C@H]1O	cytopathic effect / XTT	RF	CEM	EC50	-	-	7.82 µM
C[C@@H]1CN2CCC[C@@H]3CCCCC[C@@H]4C(=O)[C@@H](C)CN5CCC[C@@H](CCCCC[C@@H](C1=O)[C@H]32)[C@H]45	p24	MN	MT-2	EC90	-	-	106.6 µM
COc1cc([C@@H]2c3cc4c(cc3[C@H](O)[C@H]3COC(=O)[C@H]23)OCO4)cc(OC)c1OC	syncytia	IIIB	H9	EC50	-	-	<0.007 µM
CC(C)=CCN1Cc2cc(Cl)cc3[nH]c(=O)n(c23)C[C@@H]1C	cytopathic effect	Recombinant	MT-4	EC50	-	RT-V106A	1.2 µM
CO[C@@H]1N([C@H]2C=C[C@@H](CO)O2)C(=O)NC(=O)[C@@]1(C)I	cytopathic effect / XTT	RF	CEM	EC50	-	-	0.376 µM
Cc1cn([C@H]2C[C@H](N=[N+]=[N-])[C@@H](CO)O2)c(=O)nc1NNCCO	MTT / ELISA	IIIB	C8166	EC50	-	-	0.16 µM
Nc1nc(Cl)c2ncn([C@@H]3CC[C@H](CO)O3)c2n1	cytopathic effect / MTT	IIIB	MT-2	EC50	-	-	>100 µM